Pooled drug test results. Numbers come from NIAID ChemDB, via PubChem.

All rows: enzyme or target tests

Two numbers with a dash give a range or band. ICn is the concentration giving n% inhibition. Lines come from different laboratories, so protocols vary. An empty or dashed field is not shown. Inhibition is in % at the dose shown (toxicity tests: loss of growth or viability).

SMILES | target | dose | agent | endpoint | value
Cc1ccc(C(=O)N(c2cc(-c3ccccc3)sc2C(=O)O)C(C)C)c(Br)c1 | NS3 ATPase | - | Hepatitis C virus | IC50 | <5 µM
CC[C@@H](C=O)NC(=O)[C@@H]1C[C@@H](OC(=O)Nc2ccc3ncsc3c2)CN1C(=O)[C@@H](NC(=O)[C@@H](NC(=O)c1cnccn1)C(C)C)C(C)C | NS3 protease | - | Hepatitis C virus | Ki | 1–100 µM
O=C(O)c1cc2nccc(-c3cccc(-c4ccc(Cl)cc4)c3)n2n1 | RNA-dependent RNA polymerase | - | Hepatitis C virus | IC50 | 1–10 µM
CC[C@@H](C=O)NC(=O)[C@@H]1C[C@@H](OC(=O)Nc2ccc(Cl)cc2Cl)CN1C(=O)[C@@H](NC(=O)[C@@H](NC(=O)c1cnccn1)C(C)C)C(C)C | NS3 protease | - | Hepatitis C virus | Ki | 1–100 µM
COc1nc(Nc2ccc3cn[nH]c3c2)nc(NN2CCOCC2)n1 | DNA polymerase | 0.01 µg/mL | Hepatitis B virus | inhibition | 27%
Cc1cc(C)c(S(=O)(=O)Nc2cc(-c3ccccc3)sc2C(=O)O)c(C)c1 | NS3 ATPase | - | Hepatitis C virus | IC50 | <5 µM
CC[C@@H](C=O)NC(=O)[C@@H]1C[C@@H](OCc2ccccc2)CN1C(=O)[C@@H](NC(=O)CCCc1ccccc1)C(C)C | NS3 protease | - | Hepatitis C virus | Ki | >100 µM
Cc1ccccc1S(=O)(=O)Nc1cc(-c2ccc(Cl)c(Cl)c2)sc1C(=O)O | NS3 ATPase | - | Hepatitis C virus | IC50 | 5–20 µM
CC(C)Oc1cc2c(C(=O)NC3CC3)c(-c3ccc(F)cc3)oc2cc1NS(C)(=O)=O | Nonstructural protein 5B | - | Hepatitis C virus | IC50 | ≤0.5 µM
CCN(CC)c1ncc(CN(C(=O)c2ccc(Cl)cc2Cl)c2cc(-c3ccccc3)sc2C(=O)O)s1 | NS3 ATPase | - | Hepatitis C virus | IC50 | <5 µM
Cc1cc(-c2ccc3cc(-c4nc5cc(C(=O)O)ccc5n4C4CCCCC4)ccc3n2)c(-c2ccccc2)s1 | NS5B polymerase | 100 µM | Hepatitis C virus | inhibition | 98.07%
CC[C@@H](C=O)NC(=O)[C@@H]1C[C@@H](OC(=O)Nc2ccc(C(C)=O)cc2)CN1C(=O)[C@@H](NC(=O)[C@@H](NC(=O)c1cnccn1)C(C)C)C(C)C | NS3 protease | - | Hepatitis C virus | Ki | 1–100 µM
CNC(=O)c1c(-c2ccc(F)cc2)oc2cc(N3CCC3)c(OC(C)C)cc12 | Nonstructural protein 5B | - | Hepatitis C virus | IC50 | ≤0.5 µM
COc1nc(NCCN(C)C)nc(Nc2ccc3[nH]ncc3c2)n1 | DNA polymerase | 1 µg/mL | Hepatitis B virus | inhibition | 40%
Cc1ccc(-c2nc(C(=O)O)c(O)c(=O)[nH]2)s1 | HCV polymerase | - | Hepatitis C virus | IC50 | <25 µM
COc1nc(Nc2ccc3[nH]ncc3c2)nc(NN2CCOCC2)n1 | DNA polymerase | - | Hepatitis B virus | IC50 | 0.1–1 µg/mL
O=C(O)c1nc(-c2sccc2NC(=O)C2Cc3ccccc3CN2)[nH]c(=O)c1O | HCV polymerase | - | Hepatitis C virus | IC50 | <25 µM
CC[C@@H](C=O)NC(=O)[C@@H]1C[C@@H](OC(=O)Nc2cccc(Cl)c2)CN1C(=O)[C@@H](NC(=O)[C@@H](NC(=O)c1cnccn1)C(C)C)C(C)C | NS3 protease | - | Hepatitis C virus | Ki | 1–100 µM
O=C(OCc1cccc2ccccc12)c1nc(-c2cccs2)[nH]c(=O)c1O | HCV polymerase | - | Hepatitis C virus | IC50 | <50 µM
COc1nc(Nc2ccc3[nH]ncc3c2)nc(N2CCN(C(=O)c3cccnc3)CC2)n1 | DNA polymerase | - | Hepatitis B virus | IC50 | 0.1–1 µg/mL
CNC(=O)c1c(-c2ccc(F)cc2)oc2cc(N(CC(F)(F)F)S(C)(=O)=O)c(OC)cc12 | Nonstructural protein 5B | - | Hepatitis C virus | IC50 | ≤0.5 µM
CC(C)N(C(=S)c1ccc(Cl)cc1Cl)c1cc(-c2ccccc2)sc1C(=O)O | NS3 ATPase | - | Hepatitis C virus | IC50 | <5 µM
O=C(N[C@@H](Cc1ccccc1)C(=O)O)c1cnn2c(C3CCCCC3)c(-c3ccc(OCc4ccccc4)cc3)cnc12 | RNA-dependent RNA polymerase | - | Hepatitis C virus | IC50 | <1 µM
O=C(NCc1ccccc1Br)Nc1ccsc1-c1nc(C(=O)O)c(O)c(=O)[nH]1 | HCV polymerase | - | Hepatitis C virus | IC50 | <25 µM
O=C(O)c1ccc2c(c1)nc(-c1ccc3nc(-c4ccccc4-c4ccncc4)ccc3c1)n2C1CCCCC1 | NS5B polymerase | 100 µM | Hepatitis C virus | inhibition | 98.8%
O=C(O)c1cc2nc(-c3ccc(F)cc3)cc(-c3ccc(Cl)c(Cl)c3)n2n1 | RNA-dependent RNA polymerase | - | Hepatitis C virus | IC50 | 1–10 µM
CC(C)N(C(=O)C1CC[C@@H](C)C[C@@H]1O)c1cc(-c2ccccc2)sc1C(=O)O | NS3 ATPase | - | Hepatitis C virus | IC50 | <5 µM
O=C(Cc1c(-c2ccccc2)[nH]c2ccccc12)Nc1ccsc1-c1nc(C(=O)O)c(O)c(=O)[nH]1 | HCV polymerase | - | Hepatitis C virus | IC50 | <25 µM
COc1nc(Nc2ccc3cn[nH]c3c2)nc(N2CCN(C(=O)c3cccnc3)CC2)n1 | DNA polymerase | - | Hepatitis B virus | IC50 | >1 µg/mL
CC[C@@H](C=O)NC(=O)[C@@H]1C[C@@H](OCc2ccccc2)CN1C(=O)[C@@H](NC(=O)[C@H](Cc1cccc2ccccc12)NC(=O)c1cnccn1)C(C)C | NS3 protease | - | Hepatitis C virus | Ki | 1–100 µM
COc1nc(NCCCN2CCCC2=O)nc(Nc2ccc3[nH]ncc3c2)n1 | DNA polymerase | - | Hepatitis B virus | IC50 | 0.1–1 µg/mL
CC[C@@H](C=O)NC(=O)[C@@H]1C[C@@H](OC(=O)Nc2ccc3c(c2)OCO3)CN1C(=O)[C@@H](NC(=O)[C@@H](NC(=O)c1cnccn1)C(C)C)C(C)C | NS3 protease | - | Hepatitis C virus | Ki | 1–100 µM
COc1cc(-c2cc(-c3ccc(Oc4cccc(Cl)c4)cc3)nc3cc(C(=O)O)nn23)ccc1Cl | RNA-dependent RNA polymerase | - | Hepatitis C virus | IC50 | >10 µM
COc1nc(NCCCN2CCOCC2)nc(Nc2ccc3[nH]ncc3c2)n1 | DNA polymerase | 0.01 µg/mL | Hepatitis B virus | inhibition | 24%
CC[C@H](NC(=O)[C@H](CC(C)C)NC(=O)[C@@H](NC(=O)[C@@H](NC(=O)c1cnccn1)C(C)C)C(C)C)C(=O)C(=O)N[C@@H](CC)c1ccccc1 | NS3 protease | - | Hepatitis C virus | Ki | >100 µM
Cc1cccc(N2CCN(C(=O)Nc3cc(-c4ccccc4)sc3C(=O)O)CC2)n1 | NS3 ATPase | - | Hepatitis C virus | IC50 | 5–20 µM
O=C(NC(CO)C(=O)O)c1ccc2c(c1)nc(-c1ccc3ncccc3c1)n2C1CCCCC1 | NS5B polymerase | 33 µM | Hepatitis C virus | inhibition | 66.96%
O=C(Nc1cscc1-c1nc(C(=O)O)c(O)c(=O)[nH]1)NS(=O)(=O)c1cccc(Br)c1 | HCV polymerase | - | Hepatitis C virus | IC50 | <25 µM
CCOC(=O)C1=CN(N2CCN(c3nc(Nc4ccc5[nH]ncc5c4)nc(OC)n3)CC2)C(SC)N=C1 | DNA polymerase | - | Hepatitis B virus | IC50 | >1 µg/mL
CNC(=O)c1c(-c2ccc(F)cc2)oc2cc(-c3cc(C4CC4)on3)c(OC(C)C)cc12 | Nonstructural protein 5B | - | Hepatitis C virus | IC50 | ≤0.5 µM
Cc1c(-c2ccccc2)sc(C(=O)O)c1N(C(=O)c1ccc(Cl)cc1Cl)C(C)C | NS3 ATPase | - | Hepatitis C virus | IC50 | 5–20 µM
O=C(Nc1cccc(-c2nc(C(=O)O)c(O)c(=O)[nH]2)c1)NC1CCc2ccccc21 | HCV polymerase | - | Hepatitis C virus | IC50 | <100 µM
O=C(O)c1ccc2c(c1)nc(-c1ccc3ccc(-c4ccccc4)nc3c1)n2C1CCCCC1 | NS5B polymerase | 100 µM | Hepatitis C virus | inhibition | 98.89%
O=C(Nc1ccsc1-c1nc(C(=O)O)c(O)c(=O)[nH]1)OCCc1cccc2ccccc12 | HCV polymerase | - | Hepatitis C virus | IC50 | <25 µM
COc1nc(NCCc2ccccn2)nc(Nc2ccc3[nH]ncc3c2)n1 | DNA polymerase | 0.1 µg/mL | Hepatitis B virus | inhibition | 39%
O=C(O)c1cnn2c(-c3cccc(Oc4ccccc4)c3)c(-c3ccccc3)cnc12 | RNA-dependent RNA polymerase | - | Hepatitis C virus | IC50 | >10 µM
O=C(O)c1ccc2c(c1)nc(-c1ccc3nc(-c4cccc(Br)c4)ccc3c1)n2C1CCCCC1 | NS5B polymerase | 100 µM | Hepatitis C virus | inhibition | 101%
CNC(=O)c1c(-c2ccc(F)cc2)oc2cc(N(CCOC)S(C)(=O)=O)c(OC(C)C)cc12 | Nonstructural protein 5B | - | Hepatitis C virus | IC50 | ≤0.5 µM
COc1ccc(-c2ccc(O)cc2)c(-c2ccc3cc(-c4nc5cc(C(=O)O)ccc5n4C4CCCCC4)ccc3n2)c1 | NS5B polymerase | 33 µM | Hepatitis C virus | inhibition | 94.22%
CNC(=O)c1c(-c2ccc(F)cc2)oc2cc(-c3c(C)noc3C)c(OC(C)C)cc12 | Nonstructural protein 5B | - | Hepatitis C virus | IC50 | ≤0.5 µM

6 of the rows above, restated:

SMILES | target | dose | agent | endpoint | value
O=C(O)c1cc2nccc(-c3cccc(-c4ccc(Cl)cc4)c3)n2n1 | RNA-dependent RNA polymerase | - | Hepatitis C virus | IC50 | 1–10 µM
O=C(Nc1cscc1-c1nc(C(=O)O)c(O)c(=O)[nH]1)NS(=O)(=O)c1cccc(Br)c1 | HCV polymerase | - | Hepatitis C virus | IC50 | <25 µM
COc1nc(Nc2ccc3cn[nH]c3c2)nc(NN2CCOCC2)n1 | DNA polymerase | 0.01 µg/mL | Hepatitis B virus | inhibition | 27%
CC[C@@H](C=O)NC(=O)[C@@H]1C[C@@H](OC(=O)Nc2ccc3ncsc3c2)CN1C(=O)[C@@H](NC(=O)[C@@H](NC(=O)c1cnccn1)C(C)C)C(C)C | NS3 protease | - | Hepatitis C virus | Ki | 1–100 µM
COc1nc(NCCCN2CCCC2=O)nc(Nc2ccc3[nH]ncc3c2)n1 | DNA polymerase | - | Hepatitis B virus | IC50 | 0.1–1 µg/mL
Cc1ccccc1S(=O)(=O)Nc1cc(-c2ccc(Cl)c(Cl)c2)sc1C(=O)O | NS3 ATPase | - | Hepatitis C virus | IC50 | 5–20 µM